Potato spindle tuber viroid, stem 3: variant abundance in plants

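A pool of all variants was put on leaves of three Nicotiana benthamiana plants. Samples came from the inoculated region at 5 days, the leaf margin at 10 and upper systemic leaves at 12.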

The pool varies stem 3 of the PSTVd intermediate strain in the pattern GUGGUUCCGNANNCNN; wild type is GUGGUUCCGGAACCGC (upper and lower strand joined, each 5' to 3', the first 8 letters being the upper strand).

Numbers give reads per thousand; 0 = not seen among the reads, higher = more abundant.
Each site shows the three plants.
"Pool" is the share in the plasmid pool used as inoculum, on the same scale.
The inoculated region was read from the minus strand, the other sites from the plus strand.
With 27,691-54,225 reads a sample, very low values are single reads.
Sequences that differ at fixed positions probably stem from PCR or sequencing errors, and defective variants can be carried along by functional ones.
For reference, wild type rose from 17.3 per thousand in the pool to 330, 345, 235 (inoculated region), 794, 766, 816 (leaf margin) and 830, 792, 869 (systemic leaves).

{"sequence": "GUGGUUCCGAACACCU", "pool": "0.970", "inoculated region": "0.746 0.625 0.730", "leaf margin": "0 1.50 0.361", "systemic leaves": "0 0 0"}
{"sequence": "GUGGUUCCGAACGCUG", "pool": "0.908", "inoculated region": "0.506 0.367 0.405", "leaf margin": "0 0 0.0722", "systemic leaves": "0 0 0"}
{"sequence": "GUGGUUCCGGAACAGG", "pool": "0.0154", "inoculated region": "0 0 0", "leaf margin": "0 0 0", "systemic leaves": "0 0.0553 0"}
{"sequence": "GUGGUUCCGGAGCCGA", "pool": "0.769", "inoculated region": "0.240 0.410 0.351", "leaf margin": "0 0 0", "systemic leaves": "0.0186 0 0"}
{"sequence": "GUGGUUCCGCAUUCGG", "pool": "0.877", "inoculated region": "0.133 0.280 0.162", "leaf margin": "0 0 0", "systemic leaves": "0 0 0"}
{"sequence": "GUGGUUCCGGAAACAA", "pool": "0.939", "inoculated region": "0.347 0.410 0.324", "leaf margin": "0 0.0318 0.0361", "systemic leaves": "0 0 0"}
{"sequence": "GUGGUUCCGAACGCGG", "pool": "0.677", "inoculated region": "0.373 0.323 0.189", "leaf margin": "0 0 0.0361", "systemic leaves": "0 0 0"}
{"sequence": "GUGGUUCCGAAAGCGU", "pool": "0.893", "inoculated region": "0.720 0.518 1.03", "leaf margin": "0 0 0.0361", "systemic leaves": "0.0186 0.0184 0"}
{"sequence": "GUGGUUCCGCAUGCCA", "pool": "0.877", "inoculated region": "0.213 0.323 0.135", "leaf margin": "0 0.0318 0", "systemic leaves": "0 0 0"}
{"sequence": "GUGGUUCCGUAUGCGA", "pool": "0.723", "inoculated region": "0.293 0.216 0.162", "leaf margin": "0 0.0318 0", "systemic leaves": "0 0 0"}
{"sequence": "GUGGUUCCGCAAUCGG", "pool": "0.816", "inoculated region": "0.320 0.367 0.297", "leaf margin": "0.0283 0 0", "systemic leaves": "0 0 0"}
{"sequence": "GUGGUUCCGCAGCCGC", "pool": "0.970", "inoculated region": "0.373 0.453 0.162", "leaf margin": "0.0567 0 0.0361", "systemic leaves": "0 0 0"}
{"sequence": "GUGGUUCCGCACACUU", "pool": "0.800", "inoculated region": "0.213 0.453 0.270", "leaf margin": "0.0283 0 0", "systemic leaves": "0 0 0"}
{"sequence": "GUGGUUCCGCAGACAU", "pool": "0.677", "inoculated region": "0.800 0.776 1.08", "leaf margin": "0 1.02 0.325", "systemic leaves": "0 0 0"}
{"sequence": "GUGGUUCCGUAUACGG", "pool": "0.939", "inoculated region": "0.400 0.431 0.243", "leaf margin": "0.0283 0 0", "systemic leaves": "0 0 0"}
{"sequence": "GUGGUUCCGGAUGCUC", "pool": "0.846", "inoculated region": "0.480 0.280 0.189", "leaf margin": "0 0 0", "systemic leaves": "0 0 0"}
{"sequence": "GUGGUUCCGCACGCAU", "pool": "0.754", "inoculated region": "0.853 0.712 0.784", "leaf margin": "0 0.0318 0.361", "systemic leaves": "0 0 0"}
{"sequence": "GUGGUUCCGAAAGCCC", "pool": "1.40", "inoculated region": "0.746 0.819 0.540", "leaf margin": "0 0 0.0722", "systemic leaves": "0 0 0"}
{"sequence": "GUGGUUCCGGAUACAG", "pool": "0.800", "inoculated region": "0.267 0.280 0.216", "leaf margin": "0 0 0", "systemic leaves": "0 0 0"}
{"sequence": "GUGGUUCCGGAUACCA", "pool": "0.693", "inoculated region": "0.533 0.259 0.108", "leaf margin": "0 0 0", "systemic leaves": "0 0 0"}
{"sequence": "GUGGUUCCGAAGUCCC", "pool": "1.79", "inoculated region": "1.07 1.57 1.46", "leaf margin": "1.76 1.08 0.542", "systemic leaves": "1.38 1.42 0.632"}
{"sequence": "GUGGUUCCGCAGCCUG", "pool": "0.846", "inoculated region": "0.293 0.302 0.189", "leaf margin": "0 0.0318 0", "systemic leaves": "0 0 0"}
{"sequence": "GGGGUUCCGGAUUCUC", "pool": "0.0154", "inoculated region": "0 0 0", "leaf margin": "0 0 0", "systemic leaves": "0 0 0"}
{"sequence": "GUGGUUCCGCAUCCUU", "pool": "0.985", "inoculated region": "0.347 0.496 0.432", "leaf margin": "0 0 0", "systemic leaves": "0 0 0"}
{"sequence": "UUGUUUCCGGACUCCA", "pool": "0.0154", "inoculated region": "0 0 0", "leaf margin": "0 0 0", "systemic leaves": "0 0 0"}
{"sequence": "GUGGUGCCGACGCCAA", "pool": "0.0154", "inoculated region": "0 0 0", "leaf margin": "0 0 0", "systemic leaves": "0 0 0"}
{"sequence": "GUGGUUCCGAACGCAA", "pool": "0.785", "inoculated region": "1.31 0.992 1.86", "leaf margin": "0.340 0.0954 0.975", "systemic leaves": "0 0 0"}
{"sequence": "GUGGUUCCGGAUCCCU", "pool": "0.677", "inoculated region": "0.453 0.237 0.216", "leaf margin": "0 0.0318 0", "systemic leaves": "0 0 0"}
{"sequence": "GUGGUUCCGAACCCCU", "pool": "0.785", "inoculated region": "0.826 0.625 0.919", "leaf margin": "0 0 0.181", "systemic leaves": "0 0 0"}
{"sequence": "GUGGUUCCGGAUGCUU", "pool": "0.800", "inoculated region": "0.506 0.280 0.324", "leaf margin": "0 0 0", "systemic leaves": "0 0 0"}
{"sequence": "GUGGUUCCGUAUCCCU", "pool": "0.816", "inoculated region": "0.480 0.280 0.216", "leaf margin": "0 0 0", "systemic leaves": "0 0 0"}
{"sequence": "AUGGUUCCGAAGCCUG", "pool": "0.0154", "inoculated region": "0 0 0", "leaf margin": "0 0 0", "systemic leaves": "0 0 0"}
{"sequence": "GUGGUUCCGCAAUCGU", "pool": "0.846", "inoculated region": "0.693 0.604 0.784", "leaf margin": "0 0 0", "systemic leaves": "0 0 0"}
{"sequence": "GUGGUUCCGCAAUCAC", "pool": "0.739", "inoculated region": "0.720 0.733 0.730", "leaf margin": "0 0 0.361", "systemic leaves": "0 0 0"}
{"sequence": "GUGGUUCCGAAUGCAG", "pool": "1.22", "inoculated region": "0.800 0.712 0.676", "leaf margin": "0 0 0.0361", "systemic leaves": "0.0373 0 0"}
{"sequence": "GUGGUUCCGAAGACUC", "pool": "0.708", "inoculated region": "1.07 0.647 0.784", "leaf margin": "0 0 0.325", "systemic leaves": "0 0 0"}
{"sequence": "GUGGUUCCGGACACUU", "pool": "1.05", "inoculated region": "0.720 0.561 0.703", "leaf margin": "0.368 0 0.469", "systemic leaves": "0 0 0"}
{"sequence": "GUGGUUCCGAAGUCGC", "pool": "0.846", "inoculated region": "0.880 0.755 0.622", "leaf margin": "0 0.827 0.253", "systemic leaves": "0 0 0"}
{"sequence": "GUGGUUCCGCAACCAC", "pool": "1.89", "inoculated region": "0.960 0.690 0.892", "leaf margin": "0 0 0", "systemic leaves": "0.0559 0 0"}

A selection of 4 entries from above:

With GUGGUUCCGCAGCCGC (pool 0.970) the assay gave inoculated region 0.373 0.453 0.162; leaf margin 0.0567 0 0.0361; systemic leaves 0 0 0.
With GUGGUUCCGGAGCCGA (pool 0.769) the assay gave inoculated region 0.240 0.410 0.351; leaf margin 0 0 0; systemic leaves 0.0186 0 0.
With GUGGUUCCGGACACUU (pool 1.05) the assay gave inoculated region 0.720 0.561 0.703; leaf margin 0.368 0 0.469; systemic leaves 0 0 0.
With GGGGUUCCGGAUUCUC (pool 0.0154) the assay gave inoculated region 0 0 0; leaf margin 0 0 0; systemic leaves 0 0 0.

Data from the supplement of Wu et al. 2024, doi:10.1371/journal.ppat.1012142.